A mixed list of measured activities; the numbers were collected in NIAID ChemDB.

All rows: tests in culture; agent: Herpes simplex virus 1; measure: EC50

Rows are shuffled and stem from different studies.

structure | strain | cells | read by | result
C[C@@]12CC[C@]3(C1)C(C[C@@H](O)[C@H]1[C@](C)(CO)CCC[C@@]13C)C[C@@H]2O | F | HeLa | plaque count | 65 µM
O=C(O)P(=O)(O)O | V8523 | SIRC | plaque count | <500 µM
Cn1c2ccccc2c2c3c(c4c5ccccc5n(CCC#N)c4c21)CNC3=O | K1 | HEF | cytopathic effect | >25 µM
C[C@@]12CC[C@]3(C1)C(CC(=O)[C@H]1[C@](C)(C(=O)O)CCC[C@@]13C)CC2=O | F | HeLa | plaque count | 22.6 µM
Nc1ccn(C[C@@H](CO)OCP(=O)(O)O)c(=O)n1 | 3 strains | Primary rabbit kidney cells | cytopathic effect | 4 µg/mL
N#Cc1cn(COC(CO)CO)c2ncnc(N)c12 | - | HFF | plaque count | >100 µM
O=C(O)P(=O)(O)O | ACV-resistant | HEL | cytopathic effect | 30 µg/mL
Nc1ncnc2c1ncn2OCCOCP(=O)(O)O | SC16 | MRC-5 | cytopathic effect | >300 µM
O=c1[nH]c(=S)n([C@@H]2O[C@H](CO)[C@@H](O)[C@@H]2O)cc1Br | TK- | MRC-5 | plaque count | >295 µM
C[C@@]12CC[C@]3(C1)C(C[C@H]2O)C[C@@H](OC(=O)c1ccccc1)[C@H]1[C@](C)(C(=O)O)CCC[C@@]13C | F | HeLa | plaque count | 13.4 µM
Cc1cc(=O)c2c(O)c3c(O)cc(O)c4c5c(O)cc(O)c6c(O)c7c(=O)cc(C)c8c1c2c(c34)c(c65)c78 | MAYO 1814 | BSC-1 | cytopathic effect | 20 µg/mL
COc1ccc2nc3cc(Cl)ccc3c(Nc3cccnc3)c2c1 | - | VERO 76 | plaque count | >100 µM
Nc1nccc2c1ncn2[C@@H]1C[C@H](CO)[C@@H](O)[C@H]1O | B2006 (TK-) | PRK | cytopathic effect | 150 µg/mL
O=C1NCc2c1c1c3ccccc3[nH]c1c1[nH]c3ccccc3c21 | K1 | HEF | cytopathic effect | >25 µM
COc1cc([C@@H]2c3cc4c(cc3[C@H](O)[C@H]3COC(=O)[C@H]23)OCO4)cc(OC)c1OC | INOUE | MRC-5 | - | 0.01 µg/mL
Nc1nc(N)c2nnn(C[C@H]3CC[C@@H](CO)C3)c2n1 | VMW1837 (TK-) | E6SM | cytopathic effect | >400 µg/mL
Nc1ncnc2c1ncn2C[C@@H](CO)OCP(=O)(O)O | KOS ACV-resistant | HEL | cytopathic effect | 0.11 µg/mL
Nc1nc2c(ncn2[C@H]2C=C[C@@H](CO)C2)c(=O)[nH]1 | KOS | E6SM | cytopathic effect | 0.64 µg/mL
CCC(=O)O[C@H]1C[C@H](n2cc(/C=C/Br)c(=O)[nH]c2=O)O[C@@H]1COP1(=O)OCc2cccc(C)c2O1 | KUPKA (TK+) | VERO | plaque count | 1.57 µg/mL
Cc1cn(CC(CO)OCP(=O)(O)O)c(=O)[nH]c1=O | (TK-) 2 strains | Primary rabbit kidney cells | cytopathic effect | >400 µg/mL
Nc1nc2c(ncn2COCCO)c(=O)[nH]1 | - | HELA TK- | plaque count | 4.2 µM
O=C1CCC(c2ccccc2)C(=O)N1 | - | VERO 76 | MTT | >98 µM
Nc1ncc2c(ncn2COC(CO)CO)n1 | KOS | HEL | cytopathic effect | 0.12 µg/mL
Cc1cccc2c1OP(=O)(OC[C@H]1O[C@@H](n3cc(/C=C/Br)c(=O)[nH]c3=O)C[C@@H]1OC(=O)[C@@H]1CCCN1)OC2 | KUPKA (TK+) | VERO | plaque count | 0.44 µg/mL
CC(=O)O[C@@H]1CC2CC(=O)[C@]3(C)CC[C@@]2(C3)[C@@]2(C)CCC[C@@](C)(C(=O)O)[C@H]12 | F | HeLa | plaque count | 50.5 µM
Nc1ncnc2c1ncn2C[C@@H](CO)OCP(=O)(O)O | KOS | HEL | cytopathic effect | 0.07 µg/mL
C=C(/C=C/P(=O)(O)O)Cn1cnc2c(=O)[nH]c(N)nc21 | SC16 | MRC-5 | cytopathic effect | >300 µM
Nc1nc2c(nnn2C[C@H]2CC[C@@H](CO)C2)c(=O)[nH]1 | KOS | E6SM | cytopathic effect | >200 µg/mL
O=C(O)CP(=O)(O)O | KOS | HEL | cytopathic effect | 16 µg/mL
O=c1[nH]c(=O)n([C@H]2C[C@H](O)[C@@H](CO)O2)cc1/C=C/Br | B2006 (TK-) | E6SM | cytopathic effect | 70 µg/mL
Nc1ccn(C[C@@H](CO)OCP(=O)(O)O)c(=O)n1 | KOS | HEL | cytopathic effect | 0.4 µg/mL
O=C1CCC(c2ccccc2)C(=O)N1CCCCN1CCN(Cc2ccccc2)CC1 | - | VERO 76 | MTT | >96 µM
COc1cc([C@@H]2c3cc(O)c(O)cc3C[C@H]3COC(=O)[C@@H]32)cc(OC)c1OC | ITOH | MRC-5 | - | 0.234 µg/mL
COc1ccc2nc3cc(Cl)ccc3c(NCCCO)c2c1 | - | VERO 76 | plaque count | >100 µM
NC(=O)c1cn([C@H]2C[C@H](O)[C@@H](CO)O2)c2ncnc(N)c12 | S-148 | BSC-1 | plaque count | 37 µM
O=c1[nH]c(=O)n([C@H]2C[C@H](O)[C@@H](CO)O2)c[c]1[Hg+] | KOS | HELA TK- | virus yield | 0.448 µg/mL
O=c1[nH]cnc2c1ncn2CCOCP(=O)(O)O | (TK-) 2 strains | Primary rabbit kidney cells | cytopathic effect | >400 µg/mL
COc1ccccc1N1CCN(CCCN2C(=O)CCC(c3ccccc3)C2=O)CC1 | - | VERO 76 | MTT | >100 µM
Nc1ncnc2c1ncn2C[C@H]1COP(=O)(O)CO1 | 3 strains | Primary rabbit kidney cells | cytopathic effect | 2 µg/mL
NC(=O)c1cn([C@H]2C=C[C@@H](CO)O2)c2ncnc(N)c12 | - | HFF | plaque count | >100 µM
Nc1nc(N)c2ncn(CC/C=C/P(=O)(O)O)c2n1 | SC16 | MRC-5 | cytopathic effect | >300 µM
NC(=O)c1cn([C@@H]2O[C@H](CO)[C@@H](O)[C@@H]2O)c2ncnc(N)c12 | S-148 | BSC-1 | - | 5.1 µM
O=c1[nH]c(=O)n([C@@H]2C[C@@H](O)[C@H](CO)O2)cc1/C=C/Br | - | HELA TK- | plaque count | 0.9 µM
Cc1cccc2c1OP(=O)(OC[C@H]1O[C@@H](n3cc(/C=C/Br)c(=O)[nH]c3=O)C[C@@H]1OC(=O)[C@H](N)Cc1ccccc1)OC2 | B2006 (TK-) | VERO | plaque count | >128 µg/mL
O=C(O)P(=O)(O)O | KOS | U138-MG | cytopathic effect | 11.2 µg/mL
O=c1[nH]c(=O)n([C@H]2C[C@H](O)[C@@H](CO)O2)c[c]1[Hg+].O[C@H](C[S-])[C@H](O)CS | KOS | HELA TK- | virus yield | 0.403 µg/mL
Nc1nc(NC2CC2)c2ncn([C@H]3C=C[C@@H](COP4(=O)OCc5ccccc5O4)C3)c2n1 | TK-deficient acyclovir-resistant | E6SM | cytopathic effect | 10 µg/mL
NC(=O)c1cn([C@@H]2O[C@H](CO)C[C@H]2O)c2ncnc(N)c12 | KOS | PRK | cytopathic effect | ≥10 µg/mL
COc1cc(C2c3c(cc4c(c3OC)OCO4)C[C@H]3COC(=O)[C@H]23)cc(OC)c1OC | ITOH | MRC-5 | - | 0.056 µg/mL
NC(=O)c1cn([C@@H]2O[C@H](CO)[C@@H](O)[C@@H]2O)c2ncnc(N)c12 | S-148 | BSC-1 | virus yield | <0.9 µM
Nc1ncnc2c1ccn2[C@@H]1O[C@H](CO)[C@@H](O)[C@@H]1O | S-148 | BSC-1 | - | 220 µM
Nc1ncnc2c1ccn2[C@@H]1O[C@H](CO)[C@@H](O)[C@@H]1O | - | HFF | plaque count | 320 µM
O=c1[nH]c(=S)n([C@H]2C[C@H](O)[C@@H](CO)O2)cc1I | KOS | MRC-5 | plaque count | <0.43 µM
C[C@@]12CC[C@]3(C1)C(C[C@@H](O)[C@H]1[C@](C)(CO)CCC[C@@]13C)C[C@H]2O | F | HeLa | plaque count | 74 µM
O=C(O)P(=O)(O)O | KOS HPMPA-resistant | HEL | cytopathic effect | 27.2 µg/mL
O=c1ccn(CC(CO)OCP(=O)(O)O)c(=O)[nH]1 | (TK-) 2 strains | Primary rabbit kidney cells | cytopathic effect | >400 µg/mL
O=C(O)P(=O)(O)O | - | GMK | plaque count | 12.13 µg/mL
Nc1ncnc2c1ccn2[C@@H]1O[C@H](CO)[C@@H](O)[C@@H]1O | KOS | PRK | cytopathic effect | 125 µg/mL
O=c1[nH]c(=S)n([C@@H]2O[C@H](CO)[C@@H](O)[C@@H]2O)cc1I | KOS | MRC-5 | plaque count | 51.8 µM
NC(=O)c1cn([C@@H]2O[C@H](CO)[C@H](O)[C@H]2O)c2ncnc(N)c12 | - | HFF | plaque count | 10 µM
COC(=O)[C@]1(C)CCC[C@@]2(C)[C@H]1[C@H](OC(=O)c1ccccc1)CC1C[C@H](O)[C@]3(C)CC[C@]12C3 | F | HeLa | plaque count | 5.1 µM
Nc1nc2c(ncn2COCCO)c(=O)[nH]1 | - | GMK | plaque count | 0.2 µg/mL
O=c1[nH]c(=O)n([C@H]2C[C@H](O)[C@@H](CO)O2)c[c]1[Hg+].O=c1cc[nH]c(=S)[nH]1 | KOS | KB | virus yield | 0.04 µg/mL
Cc1cccc2c1OP(=O)(OCCOCn1cnc3c(=O)[nH]c(N)nc31)OC2 | TK-deficient acyclovir-resistant | E6SM | cytopathic effect | 5.3 µg/mL
COc1ccc2nc3cc(Cl)ccc3c(N3CCCC(O)C3)c2c1 | - | VERO 76 | plaque count | >45 µM
Nc1ncnc2c1ccn2[C@@H]1O[C@H](CO)[C@H](O)[C@H]1O | KOS | PRK | cytopathic effect | 0.2 µg/mL
CC(=O)OC[C@]1(C)CCC[C@@]2(C)[C@H]1[C@H](O)CC1C[C@@H](OC(C)=O)[C@]3(C)CC[C@]12C3 | F | HeLa | plaque count | 13.1 µM
COc1ccccc1N1CCN(CCCCN2C(=O)CCC(c3ccccc3)C2=O)CC1 | - | VERO 76 | MTT | >100 µM
CC(=O)N[C@H]1[C@@H](O[C@@H]2O[C@H](C[C@@H](O)[C@H]3O[C@@H](n4ccc(=O)[nH]c4=O)[C@H](O)[C@@H]3O)[C@H](O)[C@H](O)[C@H]2NC(=O)/C=C/CC(C)C)O[C@H](CO)[C@@H](O)[C@@H]1O | - | BSC-1 | plaque count | <0.5 µg/mL
O=c1[nH]c(=O)n([C@H]2C[C@H](O)[C@@H](CO)O2)cc1/C=C/Br | KOS GCV-resistant | HEL | cytopathic effect | 35 µg/mL
Nc1ncnc2c1ccn2COCCO | - | HFF | plaque count | >100 µM
Cc1cccc2c1OP(=O)(OC[C@H]1O[C@@H](n3cc(/C=C/Br)c(=O)[nH]c3=O)C[C@@H]1OC(=O)C(C)C)OC2 | KUPKA (TK+) | VERO | plaque count | 0.43 µg/mL
O=c1[nH]c(=S)n([C@@H]2O[C@H](CO)[C@@H](O)[C@@H]2O)cc1Cl | TK- | MRC-5 | plaque count | >340 µM

The first 9 rows once more:

structure,strain,cells,read by,result
C[C@@]12CC[C@]3(C1)C(C[C@@H](O)[C@H]1[C@](C)(CO)CCC[C@@]13C)C[C@@H]2O,F,HeLa,plaque count,65 µM
O=C(O)P(=O)(O)O,V8523,SIRC,plaque count,<500 µM
Cn1c2ccccc2c2c3c(c4c5ccccc5n(CCC#N)c4c21)CNC3=O,K1,HEF,cytopathic effect,>25 µM
C[C@@]12CC[C@]3(C1)C(CC(=O)[C@H]1[C@](C)(C(=O)O)CCC[C@@]13C)CC2=O,F,HeLa,plaque count,22.6 µM
Nc1ccn(C[C@@H](CO)OCP(=O)(O)O)c(=O)n1,3 strains,Primary rabbit kidney cells,cytopathic effect,4 µg/mL
N#Cc1cn(COC(CO)CO)c2ncnc(N)c12,-,HFF,plaque count,>100 µM
O=C(O)P(=O)(O)O,ACV-resistant,HEL,cytopathic effect,30 µg/mL
Nc1ncnc2c1ncn2OCCOCP(=O)(O)O,SC16,MRC-5,cytopathic effect,>300 µM
O=c1[nH]c(=S)n([C@@H]2O[C@H](CO)[C@@H](O)[C@@H]2O)cc1Br,TK-,MRC-5,plaque count,>295 µM

An empty or dashed field is not shown. ECn is the concentration giving n% inhibition of infection, replication or growth.